Laboratory results from PMC7865074.

Target: biotinylated WNV NS5 PBM peptide (West Nile virus)
Assay: holdup assay (automated high-throughput chromatography); biotinylated NS5 PBM peptide as bait against 259 human PDZ domains expressed in E. coli; read-out binding intensity (BI), mean of replicates; BI threshold 0.2 for a significant interaction

Sorting nexin-27, PDZ domain (holdup construct) (from UniProt Q96L92 43-136) (domain or fragment)
BI (holdup binding intensity): 0.69
